A mixed list of measured activities; the numbers were collected in NIAID ChemDB.

All rows: whole-cell or culture tests; agent: HIV-1; cells: MT-4; endpoint: inhibition

Blank or dashed fields: not listed here.

structure | strain or isolate | changes | method | setting | tested at | value
C=C1[C@H](n2cnc3c(N)ncnc32)O[C@@H]1CO | - | - | antigen | - | 100 µg/mL | 99.9%
Cc1cn([C@H]2C[C@H](N=[N+]=[N-])C([C@@H](O)CO)O2)c(=O)[nH]c1=O | IIIB | - | cytopathic effect / trypan blue | - | 200 µg/mL | 0%
N#Cc1cc(Cl)cc(Oc2c(Cl)ccc3c2cnn3Cc2[nH]nc3nc(N)ccc23)c1 | - | - | - | - | 0.0041 µM | >95%
O=C(NCCc1ccccc1)Nc1nncs1 | - | - | cytopathic effect / XTT | - | 100 µg/mL | 100%
CC(=O)N(C)CCN(C)c1nc(C(=O)NCc2ccc(F)cc2)c(O)c2ncccc12 | - | - | p24 | 10% FBS | 0.156 µM | >95%
CC(C)c1cc(=O)oc2cc(-c3ccc(N)cc3)c3c(c12)OC(C)(C)C=C3 | 899A | - | RT activity / visual reading | - | 50 µM | 25%
O=C(NCCc1ccccc1)NCc1ccoc1 | - | - | cytopathic effect / XTT | - | 0.1 µg/mL | 3%
N#Cc1cc(Cl)cc(Oc2c(Cl)ccc3c2cnn3Cc2[nH]nc3ncccc23)c1 | - | K103N | - | - | 0.015 µM | >95%
CC(C)c1cc(=O)oc2c(CN3CCCCC3)c(O)c3c(c12)OC(C)(C)C=C3 | 899A | - | RT activity / visual reading | - | 50 µM | 10%
CC1(C)[C@@H](O[C@H]2O[C@H](C(=O)O)[C@@H](O)[C@H](O)[C@H]2O[C@@H]2O[C@H](C(=O)O)[C@@H](O)[C@H](O)[C@H]2O)CC[C@]2(C)[C@H]3C(=O)C=C4[C@@H]5C[C@@](C)(C(=O)O)CC[C@]5(C)CC[C@@]4(C)[C@]3(C)CC[C@@H]12 | IIIB | - | cytopathic effect | - | 60 µM | 40%
[N-]=[N+]=N[C@H]1[C@H](n2cnc3c(N)ncnc32)O[C@@H]1CO | - | - | antigen | - | 3 µg/mL | <10%
O=C(NCCc1ccccc1)Nc1cnccn1 | - | - | cytopathic effect / XTT | - | 1 µg/mL | 4%
N#Cc1cc(Cl)cc(Oc2c(Cl)ccc3c2nnn3Cc2[nH]nc3nc(N)ccc23)c1 | - | - | - | - | 0.003 µM | >95%
O=C1[C@@H](Cc2ccccc2)NC(=S)N1c1ccccc1 | - | - | cytopathic effect / XTT | - | 100 µg/mL | 99–100%
O=c1[nH]cnc2c1ncn2[C@@H]1O[C@H](CO)[C@H]1COS(=O)(=O)O | - | - | antigen | - | 100 µg/mL | >99.9%
COC(=O)C(=O)c1csc(NC(=O)NCCc2ccccc2)n1 | - | - | cytopathic effect / XTT | - | 1 µg/mL | 0%
Cc1cn([C@H]2C[C@H](N=[N+]=[N-])[C@@H]([C@@H](C)O)O2)c(=O)[nH]c1=O | IIIB | - | cytopathic effect / trypan blue | - | 200 µg/mL | 0%
Nc1ncnc2c1ncn2[C@@H]1O[C@H](CO)[C@H]1F | - | - | antigen | - | 3 µg/mL | <10%
CCCCSC1=NC(c2c(O)c3c(c4c(C(C)C)cc(=O)oc24)OC(C)(C)C=C3)C=NN1 | 899A | - | RT activity / visual reading | - | 50 µM | 16%
Nc1ccn([C@H]2CC[C@@H](CO)O2)c(=O)n1 | IIIB | - | antigen | - | 0.1 µM | 70%
O=c1oc2cc(O)cc(O)c2c(O)c1-c1coc2c1c(=O)oc1cc(O)cc(O)c12 | IIIB | - | MTT | - | 0.001 µM | 0%
CC(=O)N1C(=O)[C@@H](Cc2ccc(Cl)cc2)NC1=S | - | - | cytopathic effect / XTT | - | 1 µg/mL | 5%
[N-]=[N+]=NC[C@H]1[C@H](n2cnc3c(N)ncnc32)O[C@@H]1CO | - | - | antigen | - | 3 µg/mL | 85%

A second listing of 3 rows from above:

| structure | strain or isolate | changes | method | setting | tested at | value |
|---|---|---|---|---|---|---|
| [N-]=[N+]=N[C@H]1[C@H](n2cnc3c(N)ncnc32)O[C@@H]1CO | - | - | antigen | - | 3 µg/mL | <10% |
| N#Cc1cc(Cl)cc(Oc2c(Cl)ccc3c2cnn3Cc2[nH]nc3nc(N)ccc23)c1 | - | - | - | - | 0.0041 µM | >95% |
| Nc1ncnc2c1ncn2[C@@H]1O[C@H](CO)[C@H]1F | - | - | antigen | - | 3 µg/mL | <10% |

a–b is a range or a potency band. Inhibition is in % at the dose shown (toxicity tests: loss of growth or viability). Neighbouring rows are from separate reports.